Compound potency records, mixed from different reports. Data source: NIAID ChemDB in PubChem.

All rows: growth or infection tests; agent: Rhinovirus; cells: HeLa; read-out: EC50

ECn: concentration that inhibits the pathogen or its effect by n%.

SMILES,strain,method,result
CC(C)S(=O)(=O)c1ccc(Oc2ccc(C(=O)c3ccccc3)cc2)nc1,TYPE 64,cytopathic effect,>5 µg/mL
CS(=O)(=O)c1ccc(Cc2ccc(Cl)c(Cl)c2)nc1,TYPE 29,cytopathic effect,2.5 µg/mL
CS(=O)(=O)c1ccc(Oc2ccc(C(=O)c3ccccc3)cc2)nc1,TYPE 8,cytopathic effect,>10 µg/mL
CCOc1cc(OC)ccc1-c1cc(N(CC)CC)no1,Serotype 15 (group B),cytopathic effect,5 µM
CCCc1ccc(CCCOc2cc(C)c(-c3noc(C4CC4)n3)c(C)c2)nn1,serotypes 3 4 5 9 16 18 38 66 75 67,cytopathic effect,0.05 µg/mL
CCOc1cc(CCCOc2c(C)cc(-c3noc(C)n3)cc2C)on1,Serotype 15,cytopathic effect,0.312 µg/mL
CS(=O)(=O)c1ccc(NCc2ccc(C(F)(F)F)cc2)nc1,TYPE 2,cytopathic effect,6.3 µg/mL
Cc1cc(CCCCCOc2c(Cl)cc(C3=NCCO3)cc2Cl)on1,TYPE 30,plaque count,0.04 µg/mL
CS(=O)(=O)c1ccc(NCCc2ccc(Cl)c(Cl)c2)nc1,TYPE 64,cytopathic effect,<1.3 µg/mL
Cc1ccc(CCCOc2cc(C)c(-c3noc(C(F)F)n3)c(C)c2)nn1,serotypes 3 4 5 9 16 18 38 66 75 67,cytopathic effect,0.05 µg/mL
Cc1nc(-c2cc(C)c(OCCCc3cc(C4CC4)no3)c(C)c2)no1,Serotype 14,cytopathic effect,0.039 µg/mL
CS(=O)c1ccc(Cc2ccc(S(C)(=O)=O)cn2)cc1,TYPE 1A,cytopathic effect,>10 µg/mL
COc1ccc(-c2cc(N3CCCC3)no2)c(O)c1,Serotype 72 (group A),cytopathic effect,>384 µM
Cc1ccc(CCCOc2c(C)cc(-c3nnn(C)n3)cc2C)nn1,serotypes 2 14 1A 1B 6 21 22 15 25 30 50 67 89 86 41,cytopathic effect,0.05 µg/mL
C#CCOc1cc(OC)ccc1-c1cc(N(CC)CC)no1,Serotype 86 (group A),cytopathic effect,>40 µM
CCc1ccc(CCCOc2c(C)cc(-c3noc(C)n3)cc2C)nn1,serotypes 3 4 5 9 16 18 38 66 75 67,cytopathic effect,0.0556 µg/mL
COc1ccc(-c2cc(N3CCCCC3)no2)c(O)c1,Serotype 14,cytopathic effect,>364 µM
CS(=O)(=O)c1ccc(NCc2ccc(Cl)c(Cl)c2)nc1,TYPE 1B,cytopathic effect,0.6 µg/mL
CCN(CC)c1cc(-c2ccc(OC)cc2OC)on1,Serotype 51 (group B),cytopathic effect,>362 µM
CN(C)c1ccc(Cc2ccc(S(C)(=O)=O)cn2)cc1,TYPE 1A,cytopathic effect,>10 µg/mL
CCOc1ccc(-c2cc(N3CCCCC3)no2)c(O)c1,Serotype 2,cytopathic effect,>347 µM
Cc1nc(-c2cc(C)c(OCCCc3cc(C(F)(F)F)no3)c(C)c2)no1,Serotype 67,cytopathic effect,0.161 µg/mL

Repeating the final 2 entries:

SMILES,strain,method,result
CCOc1ccc(-c2cc(N3CCCCC3)no2)c(O)c1,Serotype 2,cytopathic effect,>347 µM
Cc1nc(-c2cc(C)c(OCCCc3cc(C(F)(F)F)no3)c(C)c2)no1,Serotype 67,cytopathic effect,0.161 µg/mL

Rows are shuffled and stem from different studies.